## Library screen at single concentrations

From ChEMBL document CHEMBL3988442, “University of Dundee, Small-Polar-MMV Screening Library” (2021).

The filed quantity is “Percent Effect” (%). The controls that fix the scale are not given in the record; negative values are as filed. The entries come from a sample that favours strong results. A dash means the value is not listed here; it may have been measured.

A: 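Growth of Mycobacterium tuberculosis over 4 days (cholesterol / DPPC medium with tyloxapol); the read-out is not stated. Concentration: 500 µM. Higher reads as more growth inhibition (inferred: compounds with an IC50 in retests scored well above the rest). Size under these conditions: about 18,000 compounds, about 900 of them at 50% or above in at least one test.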
B: 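Whole-cell growth test on Mycobacterium tuberculosis, read after 3 days in glucose-containing 7H9 medium; the read-out is not stated. Tested at 500 µM. Direction is inferred from retests: higher values go with more growth inhibition. Of about 18,000 compounds tested this way, about 1,400 (7.9%) reached 50% or more in at least one test.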

{"structure": "CCCN1CCC(NC(=O)C(C)C)CC1", "B": 4.994}
{"structure": "COCc1n[nH]c(N)c1-c1ccc(OC)cc1", "B": 30.76}
{"structure": "COC(=O)c1cncc(C(=O)NCCc2ccsc2)c1", "A": 24.32}
{"structure": "CC(C)(N)c1nc(C2CC2)cc(=O)[nH]1", "A": -10.09, "B": -3.474}
{"structure": "NC(=O)Nc1cccc(C(=O)NCC2CCCCO2)c1", "stereo": "stereo unspecified", "A": 9.301}
{"structure": "CC(CCn1cccn1)NC1CCOCC1", "stereo": "stereo unspecified", "B": -4.933}
{"structure": "N#CCCN1C(=O)c2cc(Cl)c(Cl)cc2C1=O", "B": -3.507}
{"structure": "Cn1c(C(=O)OCCCC(N)=O)cc2ccccc21", "B": -11.89}
{"structure": "Cn1ncc(N2CCCC2)c(Br)c1=O", "B": -1.627}
{"structure": "NCC(CO)Cc1cc(F)cc(Br)c1", "stereo": "stereo unspecified", "B": 64.69}
{"structure": "CN1C(=O)[C@H]2CN(Cc3ccc(Cl)cc3)C[C@H]2C1=O", "A": 9.989, "B": 39.14}
{"structure": "CCOC(=O)c1cnn(C)c1", "A": 0.02516}
{"structure": "O=c1[nH]nc(CNc2ccc(Br)cc2)[nH]1", "B": 44.26}
{"structure": "CCN1CCC(NC(=O)c2c(F)cccc2F)CC1", "B": 13.7}
{"structure": "CC(C)COc1ccccc1NC(C)C(=O)NC(N)=O", "stereo": "stereo unspecified", "B": 5.812}
{"structure": "COCCNC(=O)CN(C)Cc1ccco1", "B": 17.72}
{"structure": "OCCOc1ccc(OCCO)cc1", "A": 9.29, "B": 12.94}
{"structure": "c1cnc(N2CCCC2)c(NC2CCNCC2)c1", "B": -8.25}
{"structure": "COc1ccccc1NC(=O)C(C)N1CCNC(=O)C1", "stereo": "stereo unspecified", "B": 5.432}
{"structure": "Cc1[nH]ncc1CCCNC(=O)CCN", "B": -5.272}
{"structure": "N#Cc1ccccc1CSc1nnnn1C1CC1", "A": 34.69}
{"structure": "CCN(Cc1ccco1)C(=O)c1csc(NC(C)=O)n1", "A": 6.05}
{"structure": "COc1ccc(C(=O)NCCSc2cnn[nH]2)cc1F", "A": 52.44, "B": 57.71}
{"structure": "NC(=O)C(N)c1ccc(Cl)cc1", "stereo": "stereo unspecified", "B": 40.19}
{"structure": "Cc1cnc(N)c(C)c1", "A": -4.811}
{"structure": "O=C(Cc1cccs1)NCC1CCCNC1", "stereo": "stereo unspecified", "B": 7.048}
{"structure": "CN(C)S(=O)(=O)Nc1ccccn1", "A": 8.151, "B": 7.457}
{"structure": "Cc1cccc(NCCNC(=O)c2ccccc2)n1", "A": 15.54, "B": 56.09}
{"structure": "CCc1nc(CSc2ncnn2C)no1", "B": -3.744}
{"structure": "O=c1cnc2cc(Cl)c(Cl)cc2n1CCO", "B": -1.02}
{"structure": "CCN(C1CC1)S(=O)(=O)c1ccc2c(c1)OCCO2", "B": 62.74}
{"structure": "CCC(CNC(=O)C1=NN(C)C(=O)CC1)N1CCCC1", "stereo": "stereo unspecified", "B": 8.968}
{"structure": "CCOc1ccc(OCC)c(NC(=O)CN)c1", "B": 13.66}
{"structure": "Cc1[nH][nH]c(=O)c1CCN", "A": 54.99}
{"structure": "Nc1ccc2c(n1)NC(=O)CO2", "B": -1.332}
{"structure": "CC(C)c1ccc(S(=O)(=O)C(C)C(N)=O)cc1", "stereo": "stereo unspecified", "A": 67.71, "B": 57.41}
{"structure": "CCOC(C(=O)NCC(C)(C)C(N)=O)c1ccccc1", "stereo": "stereo unspecified", "B": 3.901}
{"structure": "CC(C)(C)c1n[nH]cc1CNCC(=O)N1CCCC1", "A": 10.94, "B": 7.452}

Some entries from above, unchanged:

structure	A	B
Cn1ncc(N2CCCC2)c(Br)c1=O	-	-1.627
COc1ccc(C(=O)NCCSc2cnn[nH]2)cc1F	52.44	57.71
COCCNC(=O)CN(C)Cc1ccco1	-	17.72